## Results of single-concentration screens

Values are the deposited “Percent Effect”, in %.
The record does not define 0% and 100%; most values in the screen are far below 50% and negative numbers occur (in some assays of this library far below -100).
The entries come from a sample that favours strong results.

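Whole-cell growth test on Mycobacterium tuberculosis, read after 4 days in a medium based on cholesterol and the lipid DPPC; the read-out is not stated. Concentration: 500 µM. The record gives no direction; compounds that gave an IC50 in retests scored well above the rest, so higher reads as more growth inhibition. Of about 18,000 compounds tested this way, about 900 (5%) reached 50% or more in at least one test.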

{"smiles": "NC(=O)CCNCCc1ccccc1", "effect": 17.15}
{"smiles": "O=C1NCCNC1c1c(F)cccc1Cl", "stereo": "centres unmarked", "effect": 4.309}
{"smiles": "COc1ccc2c(c1)CCCC(=O)N2", "effect": 6.077}
{"smiles": "NCCCc1nc(-c2ccc(F)cc2)no1", "effect": 67.63}
{"smiles": "CN(C)C(=O)CN1CCCC1c1ccsc1", "stereo": "centres unmarked", "effect": -4.747}
{"smiles": "CNS(=O)(=O)N1CCc2ccccc2C1", "effect": 9.897}
{"smiles": "CNCC(=O)NCCc1cnn(-c2ccccc2)c1", "effect": 28.42}
{"smiles": "Cc1nc(CN2CCN(c3ncccc3F)CC2)n[nH]1", "effect": 13.66}
{"smiles": "Cc1csc(CCN)n1", "effect": 35.08}
{"smiles": "COC(=O)CCCNc1ccc2c(c1)OCCO2", "effect": 76.85}
{"smiles": "Cc1ccccc1CC(=O)NC1CCS(=O)(=O)C1", "stereo": "centres unmarked", "effect": 6.321}
{"smiles": "CSCC(CCO)NC(=O)c1cc(F)ccc1O", "stereo": "centres unmarked", "effect": -6.077}
{"smiles": "COc1ccc(Nc2ncccc2S(N)(=O)=O)cc1", "effect": 55.66}
{"smiles": "CN(C)C(=O)CN(C1CCCC1)C1CC1", "effect": -5.921}
{"smiles": "CN1CCC(CCN)CC1", "effect": -36.06}
{"smiles": "COCCn1cnnc1CCNc1ncccn1", "effect": -34.62}
{"smiles": "CC(C)Oc1ccc(CNC(=O)C2CCC(=O)N2)cc1", "stereo": "centres unmarked", "effect": 6.668}
{"smiles": "Cc1nc(CN(C)CC2CCN(CC(C)O)CC2)no1", "stereo": "centres unmarked", "effect": -16.56}
{"smiles": "CN1CCC(NC(=O)c2c(Br)cnn2C)CC1", "effect": 10.24}
{"smiles": "Cn1ncc2c(N)ncnc21", "effect": -0.8071}
{"smiles": "CC1(C)CCCN(C(=O)CCS(C)(=O)=O)CC1", "effect": 35.31}
{"smiles": "COCc1nc2n(n1)CCCC2NC1CCSCC1", "stereo": "centres unmarked", "effect": 27.99}
{"smiles": "Cc1ncc(C(=O)N[C@H]2CC[C@H](O)CC2)c(O)c1Br", "effect": -8.397}
{"smiles": "CN(Cc1ccncc1)S(=O)(=O)c1cccs1", "effect": 33.87}
{"smiles": "CC(N)(CO)c1ccc(Br)cc1", "stereo": "centres unmarked", "effect": 15.92}
{"smiles": "CNC(=O)CN(C)C(=O)Cc1c[nH]c2ccccc12", "effect": -1.836}
{"smiles": "CN(CC1COc2ccccc2O1)C(=O)C1CCC1", "stereo": "centres unmarked", "effect": 91.31}
{"smiles": "COC(=O)c1ccc(CSc2n[nH]c(=O)n2C)o1", "effect": 7.704}
{"smiles": "O=C(Nc1nnc[nH]1)c1ccc(N2CCOCC2)nc1", "effect": 0.4795}
{"smiles": "NC(=O)CN(Cc1ccc(Br)cc1)C(=O)c1ccco1", "effect": 17.7}
{"smiles": "Cc1nnc(SC[C@H](O)COCc2ccccc2)s1", "effect": 70.86}
{"smiles": "CCOc1cccc(CNc2nc(N(C)C)n[nH]2)c1", "effect": 88.04}
{"smiles": "Cc1n[nH]cc1CNc1ccc(F)cc1", "effect": 14.88}
{"smiles": "NCc1ccnc(OCC(F)F)c1", "effect": 15.76}
{"smiles": "NCCNC(=O)CCCc1ccccc1", "effect": -4.895}
{"smiles": "CC(=O)c1ccc(C(=O)NCC(C)N2CCCC2)s1", "stereo": "centres unmarked", "effect": 8.656}
{"smiles": "CN(C)C(=O)Cn1cnc2ccsc2c1=O", "effect": 19.74}
{"smiles": "CC1(COC(=O)c2cccnc2)CCCO1", "stereo": "centres unmarked", "effect": -3.848}
{"smiles": "Cc1occc1C(=O)N1CCCC(CNS(C)(=O)=O)C1", "stereo": "centres unmarked", "effect": -1.977}
{"smiles": "CC(C)NC(=O)N(C)C1CCS(=O)(=O)C1", "stereo": "centres unmarked", "effect": 1.012}
{"smiles": "O=C1NCCCc2[nH]c(Cc3ccncc3)nc21", "effect": -25.04}

4 of the entries, repeated:

SMILES	effect
CN(CC1COc2ccccc2O1)C(=O)C1CCC1 (centres unmarked)	91.31
NCc1ccnc(OCC(F)F)c1	15.76
CC(C)NC(=O)N(C)C1CCS(=O)(=O)C1 (centres unmarked)	1.012
Cc1nnc(SC[C@H](O)COCc2ccccc2)s1	70.86

From ChEMBL document CHEMBL3988442, “University of Dundee, Small-Polar-MMV Screening Library” (2021).